Results of unrelated studies side by side (data: NIAID ChemDB).

All rows: enzyme or target tests; agent: HIV-1; target: Reverse transcriptase

ICn is the concentration giving n% inhibition. Rows are shuffled and stem from different studies. An empty or dashed field is not shown.

structure | mutations | strain or isolate | read by | endpoint | value
NS(=O)(=O)c1ccc(NC(=O)Cc2ccc(Oc3cc(Cl)ccc3Br)c(Cl)c2)cc1 | - | - | nucleotide incorporation / radiometric | IC50 | 100 µM
CCNc1cccnc1N(C)CCCN(C)C(=O)c1cc2ccccc2[nH]1 | - | - | nucleotide incorporation | IC50 | <100 µM
CCN1c2ncc(CCOc3ccc(C(=O)Nc4ccc(C(=O)O)cc4)cc3C)cc2C(=O)N(C)c2cccnc21 | - | IIIB | nucleotide incorporation / radiometric | IC50 | <0.05 µM
CN(C)CC(=O)NC(C)(C)C#Cc1ccc(NC(=O)CSc2nnnn2-c2cc(C(F)(F)F)ccc2Cl)c(Cl)c1F | RT-K103 Y181C | - | PicoGreen / fluorescence | IC50 | <1 µM
CCCCCCCCCCCCCCCC(=O)NCC1OC(n2cnc3c(N)ncnc32)C(OP(=O)(O)OCC2OC(n3cnc4c(N)ncnc43)C(OP(=O)(O)OCC3CC(O)C(n4cnc5c(N)ncnc54)O3)C2O)C1O | - | IIIB | RT activity | IC50 | <100 µM
CC(C)C(=O)Nc1ccc(NC(=O)CSc2nnnn2-c2ccc(C(C)(C)C)cc2Cl)c(Cl)c1 | RT-K103 Y181C | - | PicoGreen / fluorescence | IC50 | <1 µM
CC(C)=CCOc1cc(NC(=S)c2ccoc2C)ccc1Cl | RT-L74V | - | - | IC50 | 2 µM
Nc1ncnc2c1ncn2[C@H]1CC[C@@H](COP(=O)(O)OP(=O)(O)OP(=O)(O)O)O1 | - | LAV | nucleotide incorporation | Ki | 5.75 µM
O=[N+]([O-])c1ccccc1S(=O)(=O)c1ccccc1 | - | - | - | IC50 | 9.5 µM
CC(C)(C)c1ccc(-n2nnnc2SCC(=O)Nc2ccc(NC(=O)c3ccc(C(=O)O)cc3)cc2Cl)c(Cl)c1 | - | WT | PicoGreen / fluorescence | IC50 | <1 µM
O=c1ccn([C@H]2C[C@H](O)[C@@H](COP(=O)(O)OP(=O)(O)OP(=O)(O)O)O2)c(=O)[nH]1 | - | LAV | nucleotide incorporation | Ki | 2.5 µM
Cc1cn([C@H]2C[C@H](N=[N+]=[N-])[C@@H](COP(=O)(O)OP(=O)(O)OP(=O)(O)OP(=O)(O)OC[C@H]3O[C@@H](n4cnc5c(N)ncnc54)[C@H](O)[C@@H]3O)O2)c(=O)[nH]c1=O | - | WT | nucleotide incorporation / radiometric | IC50 | 0.26 µM
CC(C)Nc1cccnc1N1CCN(C(=O)c2cc3cc(NC(=O)CN)ccc3[nH]2)CC1 | - | - | nucleotide incorporation | IC50 | <100 µM
Cc1ccc(-n2nnnc2SCC(=O)Nc2ccc(-c3cccc(CC(=O)O)c3)cc2Cl)c(Cl)c1 | - | WT | PicoGreen / fluorescence | IC50 | <1 µM
N#Cc1cc(C#N)cc(Oc2ccc(CC(=O)Nc3ccccc3C(F)(F)F)cc2Cl)c1 | - | - | nucleotide incorporation / radiometric | IC50 | 100 µM
CC(C)(C#Cc1ccc(NC(=O)CSc2nnnn2-c2cc(C(C)(C)C)ccc2Cl)c(Cl)c1)NC(=O)c1cc[n+]([O-])cc1 | RT-K103 Y181C | - | PicoGreen / fluorescence | IC50 | <1 µM
CCN1c2ncc(CCOc3ccc(NC(=O)c4ccc(C(=O)O)cn4)cc3C)cc2C(=O)N(C)c2cccnc21 | - | IIIB | nucleotide incorporation / radiometric | IC50 | <0.05 µM
CCN1c2ncc(CCOc3cccc4c3ccc[n+]4[O-])cc2C(=O)Nc2c(C)cc(Cl)nc21 | RT-Y181C | - | nucleotide incorporation / radiometric | IC50 | 0.02 µM
CC(C)(C)c1ccc(-n2nnnc2SCC(=O)Nc2ccc(S(=O)(=O)NCc3ccccc3)cc2Cl)c(Cl)c1 | RT-K103 Y181C | - | PicoGreen / fluorescence | IC50 | <1 µM
COC(=O)COc1ccc(NC(=O)Cc2ccc(Oc3cc(C#N)cc(C#N)c3)c(Cl)c2)cc1 | - | - | nucleotide incorporation / radiometric | IC50 | 100 µM
O=C(c1cc2ccccc2[nH]1)N1CCN(c2ncccc2NCCF)CC1 | - | - | nucleotide incorporation | IC50 | <100 µM
CCCCCCCCCCCCCCCC(=O)NCC1OC(n2cnc3c(N)ncnc32)C(OP(=O)(O)OCC2CC(OP(=O)(O)OCC3OC(n4cnc5c(N)ncnc54)C(O)C3O)C(n3cnc4c(N)ncnc43)O2)C1O | - | IIIB | RT activity | IC50 | <100 µM
Cc1[nH]c2ccccc2c1S(=O)(=O)c1ccc(Cl)cc1 | WT | - | RT activity | IC50 | 50 µM
Nc1nc2c(ncn2[C@H]2CC[C@@H](COP(=O)(O)OP(=O)(O)OP(=O)(O)O)O2)c(=O)[nH]1 | - | LAV | nucleotide incorporation | Ki | 0.03 µM
CCN1c2ncc(CCOc3ccc(C(=O)NCc4ccc(C(=O)O)cc4)cc3C)cc2C(=O)N(C)c2cccnc21 | RT-K103N Y181C | IIIB | nucleotide incorporation / radiometric | IC50 | <0.05 µM
CC(C)(C#Cc1ccc(NC(=O)CSc2nnnn2-c2ccc(C(C)(C)C)cc2Cl)c(Cl)c1)C(=O)NCCN1CCOCC1 | RT-K103 Y181C | - | PicoGreen / fluorescence | IC50 | <1 µM
Cc1cc(C)cc(S(=O)(=O)n2cc(-c3cccc([N+](=O)[O-])c3)c3ccccc32)c1 | WT | - | RT activity | IC50 | 96 µM
CC(C)(C#Cc1ccc(NC(=O)CSc2nnnn2-c2ccc(C3CC3)cc2Cl)c(Cl)c1)NC(=O)CC(=O)O | - | WT | PicoGreen / fluorescence | IC50 | <1 µM
N#Cc1ccc(Cl)c(Oc2ccc(CC(=O)Nc3ccc(S(N)(=O)=O)cc3)cc2Cl)c1 | - | - | nucleotide incorporation / radiometric | IC50 | 100 µM
COP(=O)(c1cc(C)cc(CCC#N)c1)c1c(C(N)=O)[nH]c2ccc(Cl)c(F)c12 | K103N | - | RT activity | IC50 | 0.782 µM
O=S(=O)(c1ccc(Cl)cc1)c1c[nH]c2ccccc12 | WT | - | RT activity | IC50 | 61 µM
CC(C)(C#Cc1ccc(NC(=O)CSc2nnnn2-c2ccc(C(C)(C)C)cc2Cl)c(Cl)c1)COC(N)=O | - | WT | PicoGreen / fluorescence | IC50 | <1 µM
NCC1OC(n2cnc3c(N)ncnc32)C(OP(=O)(O)OCC2OC(n3cnc4c(N)ncnc43)C(OP(=O)(O)OCC3OC(n4cnc5c(N)ncnc54)C(O)C3O)C2O)C1O | - | IIIB | RT activity | IC50 | <100 µM
Cc1ccc(S(=O)(=O)c2c(-c3ccccc3)[nH]c3ccccc23)cc1 | WT | - | RT activity | IC50 | >100 µM
CC(C)(C)c1ccc(-n2nnnc2SCC(=O)Nc2ccc(NC(=O)Cc3ccsc3)cc2Cl)c(Cl)c1 | - | WT | PicoGreen / fluorescence | IC50 | <1 µM
CC(C)Nc1cccnc1N(C)CCOC(=O)c1cc2ccccc2[nH]1 | - | - | nucleotide incorporation | IC50 | <100 µM
CC(C)(C)c1ccc(-n2nnnc2SCC(=O)Nc2ccc(C(=O)NCc3ccc(O)c(O)c3)cc2Cl)c(Cl)c1 | - | WT | PicoGreen / fluorescence | IC50 | <1 µM
N#Cc1cc(C#N)cc(Oc2ccc(CC(=O)Nc3ccc(S(N)(=O)=O)cc3)cc2Cl)c1 | - | - | nucleotide incorporation / radiometric | IC50 | 10 µM
Cc1[nH]c2ccccc2c1S(=O)(=O)c1ccccc1 | K103N | - | RT activity | IC50 | >100 µM
COc1ccc(/C=C/CSc2nc([C@H](C)c3c(F)cccc3F)c(C)c(=O)[nH]2)cc1 | K103N | - | RT activity / nucleotide incorporation | IC50 | 0.47 µM
Cc1ccc(S(=O)(=O)n2cc(-c3cccc([N+](=O)[O-])c3)c3ccccc32)cc1 | K103N | - | RT activity | IC50 | 34 µM
COc1ccc(NC(=O)Cc2ccc(Oc3cc(C#N)cc(C#N)c3)c(Cl)c2)c(C)c1 | - | - | nucleotide incorporation / radiometric | IC50 | 100 µM
CC(C)=CCOc1cc(NC(=S)c2ccsc2C)ccc1Cl | RT-P236L | - | - | IC50 | 0.3 µM
CC(C)Nc1cccnc1N1CCN(C(=O)c2cc3ccc4ccccc4c3[nH]2)CC1 | - | - | nucleotide incorporation | IC50 | <100 µM
CC(C)(C#Cc1ccc(NC(=O)CSc2nnnn2-c2ccc(C3CC3)cc2Cl)c(Cl)c1)NC(=O)CCC(=O)O | - | WT | PicoGreen / fluorescence | IC50 | <1 µM
CCN1c2ncc(CCOc3ccc(-c4ccn(CC(=O)O)n4)cc3)cc2C(=O)N(C)c2cccnc21 | - | IIIB | nucleotide incorporation / radiometric | IC50 | <0.05 µM
CCC(C)Nc1cccnc1N1CCN(C(=O)c2cc3ccccc3[nH]2)CC1 | - | - | nucleotide incorporation | IC50 | <100 µM
CC(C)(C)c1ccc(-n2nnnc2SCC(=O)Nc2ccc(OCC(=O)NC3CCOCC3)cc2Cl)c(Cl)c1 | RT-K103 Y181C | - | PicoGreen / fluorescence | IC50 | <1 µM
CCN1c2ncc(CCOc3ccc(-c4cc(C)[n+]([O-])c(C)c4)cc3C)cc2C(=O)N(C)c2cccnc21 | - | IIIB | nucleotide incorporation / radiometric | IC50 | <0.05 µM
CCNc1cccnc1N1CCN(C(=O)c2cc3c(C)c(OC)c(C)c(C)c3[nH]2)CC1 | - | - | nucleotide incorporation | IC50 | <100 µM
CC(C)(C)c1ccc(-n2nnnc2SCC(=O)Nc2ccc(C(=O)NCCc3ccc(O)c(O)c3)cc2Cl)c(Cl)c1 | RT-K103 Y181C | - | PicoGreen / fluorescence | IC50 | <1 µM
N#CCOc1ccc(NC(=O)Cc2ccc(Oc3cc(C#N)cc(C#N)c3)c(Cl)c2)cc1 | - | - | nucleotide incorporation / radiometric | IC50 | 100 µM
Cc1cc(C)cc(S(=O)(=O)c2[nH]c3ccccc3c2-c2cccc([N+](=O)[O-])c2)c1 | WT | - | RT activity | IC50 | 20 µM
CC(C(=O)Nc1ccc(NC(=O)CSc2nnnn2-c2ccc(C(C)(C)C)cc2Cl)c(Cl)c1)c1ccccc1 | - | WT | PicoGreen / fluorescence | IC50 | <1 µM
CCN1c2ncc(CCOc3ccc(NC(=O)c4ccccc4C(=O)O)cc3C)cc2C(=O)N(C)c2cccnc21 | RT-K103N Y181C | IIIB | nucleotide incorporation / radiometric | IC50 | >0.1 µM
CC(C)(C)c1ccc(-n2nnnc2SCC(=O)Nc2ccc(C(=O)Nc3ccc(CC(=O)O)cc3)cc2Cl)c(Cl)c1 | - | WT | PicoGreen / fluorescence | IC50 | <1 µM
CC(C)Nc1cccnc1N1CCN(C(=O)c2cc3ccccc3[nH]2)CC1 | - | - | nucleotide incorporation | IC50 | <100 µM
Cc1cc(C)c(-n2nnnc2SCC(=O)Nc2ccc(-c3ccc(CC(=O)O)cc3)cc2Cl)c(Cl)c1 | - | WT | PicoGreen / fluorescence | IC50 | <1 µM
CCc1cc(NCc2nc3c(C)ccc(C)c3o2)c(=O)[nH]c1C | RT-Y188C | - | nucleotide incorporation | IC50 | 0.2726 µM
CSCCC(NC(=O)c1ccc(NC(=O)CSc2nnnn2-c2ccc(C(C)(C)C)cc2Cl)c(Cl)c1)C(=O)O | RT-K103 Y181C | - | PicoGreen / fluorescence | IC50 | <1 µM
CCN1c2ncc(CCOc3ccc(-c4ccc(C(=O)O)cc4)cc3)cc2C(=O)N(C)c2ccc(Cl)nc21 | RT-K103N Y181C | IIIB | nucleotide incorporation / radiometric | IC50 | <0.05 µM
CC(=O)NNC(=O)COC(C)(C)C#Cc1ccc(NC(=O)CSc2nnnn2-c2ccc(C(C)(C)C)cc2Cl)c(Cl)c1 | RT-K103 Y181C | - | PicoGreen / fluorescence | IC50 | <1 µM
Nc1ncnc2c1ncn2[C@@H]1O[C@H](COP(=O)(S)O[C@@H]2[C@H](O)[C@@H](COP(O)(=S)O[C@@H]3[C@H](O)[C@@H](COP([O-])(=S)OP(=O)(O)OP(=O)(O)O)O[C@H]3n3cnc4c(N)ncnc43)O[C@H]2n2cnc3c(N)ncnc32)[C@@H](O)[C@H]1O | - | - | nucleotide incorporation / radiometric | IC50 | 0.5 µM
Cc1ccc(-n2c(C)cnc2SCC(=O)Nc2ccc(-c3ccc(CC(=O)O)cc3)cc2Cl)c(Cl)c1 | RT-K103 Y181C | - | PicoGreen / fluorescence | IC50 | <1 µM
Nc1ncnc2c1ncn2[C@@H]1O[C@H](COP(=O)(O)O[C@@H]2C[C@@H](COP(=O)(O)O[C@@H]3[C@H](O)[C@@H](CO)O[C@H]3n3cnc4c(N)ncnc43)O[C@H]2n2cnc3c(N)ncnc32)[C@@H](O)[C@H]1O | - | - | nucleotide incorporation / radiometric | IC50 | 160 µM

Repeating the first 8 entries:

| structure | mutations | strain or isolate | read by | endpoint | value |
|---|---|---|---|---|---|
| NS(=O)(=O)c1ccc(NC(=O)Cc2ccc(Oc3cc(Cl)ccc3Br)c(Cl)c2)cc1 | - | - | nucleotide incorporation / radiometric | IC50 | 100 µM |
| CCNc1cccnc1N(C)CCCN(C)C(=O)c1cc2ccccc2[nH]1 | - | - | nucleotide incorporation | IC50 | <100 µM |
| CCN1c2ncc(CCOc3ccc(C(=O)Nc4ccc(C(=O)O)cc4)cc3C)cc2C(=O)N(C)c2cccnc21 | - | IIIB | nucleotide incorporation / radiometric | IC50 | <0.05 µM |
| CN(C)CC(=O)NC(C)(C)C#Cc1ccc(NC(=O)CSc2nnnn2-c2cc(C(F)(F)F)ccc2Cl)c(Cl)c1F | RT-K103 Y181C | - | PicoGreen / fluorescence | IC50 | <1 µM |
| CCCCCCCCCCCCCCCC(=O)NCC1OC(n2cnc3c(N)ncnc32)C(OP(=O)(O)OCC2OC(n3cnc4c(N)ncnc43)C(OP(=O)(O)OCC3CC(O)C(n4cnc5c(N)ncnc54)O3)C2O)C1O | - | IIIB | RT activity | IC50 | <100 µM |
| CC(C)C(=O)Nc1ccc(NC(=O)CSc2nnnn2-c2ccc(C(C)(C)C)cc2Cl)c(Cl)c1 | RT-K103 Y181C | - | PicoGreen / fluorescence | IC50 | <1 µM |
| CC(C)=CCOc1cc(NC(=S)c2ccoc2C)ccc1Cl | RT-L74V | - | - | IC50 | 2 µM |
| Nc1ncnc2c1ncn2[C@H]1CC[C@@H](COP(=O)(O)OP(=O)(O)OP(=O)(O)O)O1 | - | LAV | nucleotide incorporation | Ki | 5.75 µM |